Results taken from article PMC11236204 (PLOS Pathogens, 2024).

How the values were obtained:
[1] = system: California Encephalitis virus (CEV); conditions: rat neurons; 10μg/mL; MOI 0.05; 24hpi
La Crosse virus (LACV) [2] = assay: LACV infection, automated microscopy, rat neurons; conditions: four hours before infection, MOI 0.01, 24h
[3] = system: California Encephalitis virus (CEV); conditions: U2OS; 10μg/mL; MOI 5; 24hpi
Cxcl1, Ccl2 RNA = assay: Cxcl1 and Ccl2 RNA levels in the mouse brain, 3 dpi; conditions: for CXCL1 RNA / 28s RNA: Figure 6D; for CXCL1 RNA / 28s RNA / CCL2 RNA / 28s RNA: Uninfected; for CCL2 RNA / 28s RNA: Figure 6E
[4] = system: Punta Toro virus-Balliet (PTV); conditions: U2OS; 10μg/mL; MOI 2; 15hpi
La Crosse virus (LACV) [5] = conditions: rat neurons; 10μg/mL
La Crosse virus (LACV) [6] = conditions: U2OS; 10μg/mL; MOI 0.1; 15hpi

CCCCCCCCCCCCCCCC(=O)N[C@@H](CSCC(COC(=O)CCCCCCCCCCCCCCC)OC(=O)CCCCCCCCCCCCCCC)C(=O)N[C@@H](CO)C(=O)N[C@@H](CCCCN)C(=O)N[C@@H](CCCCN)C(=O)N[C@@H](CCCCN)C(=O)N[C@@H](CCCCN)C(=O)O (some centres unmarked) [Pam3CSK4]
CEV infection in neurons (plaque assay and qPCR) [1]: decreased | LACV infection (dose response, microscopy) (La Crosse virus (LACV) [2]): inhibited LACV | antiviral activity against CEV [3]: no antiviral activity | Ccl2 levels in the brain (Cxcl1, Ccl2 RNA; 5 PFU infection, 3 dpi): decreased Ccl2 levels | decrease of Cxcl1 levels relative to infected, vehicle-treated animals (Cxcl1, Ccl2 RNA; 5 PFU, 3 days): approximately 10 fold | CXCL1 RNA / 28s RNA (Cxcl1, Ccl2 RNA; mouse 1): 4.40E-04 | CXCL1 RNA / 28s RNA (Cxcl1, Ccl2 RNA; mouse 2): 1.31E-04 | CCL2 RNA / 28s RNA (Cxcl1, Ccl2 RNA; mouse 1): 6.52E-05 | CCL2 RNA / 28s RNA (Cxcl1, Ccl2 RNA; mouse 2): 9.62E-06 | Ccl2 expression in the brain (Cxcl1, Ccl2 RNA; uninfected animals, 3 dpi): induced Ccl2 expression | induction of Cxcl1 in the brain (Cxcl1, Ccl2 RNA; uninfected animals, 3 days): approximately 10 fold | antiviral activity against PTV [4]: antiviral activity | LACV infection in neurons (plaque assay and qPCR) (La Crosse virus (LACV) [5]): decreased | antiviral activity against LACV (La Crosse virus (LACV) [6]): antiviral activity
